Measured values from several laboratories, pooled; numbers as filed in NIAID ChemDB.

Shared fields: growth or infection tests; agent: Respiratory syncytial virus; read-out: EC50

a–b is a range or a potency band. An empty or dashed field is not shown. ECn: concentration that inhibits the pathogen or its effect by n%. Rows are shuffled and stem from different studies.

structure | method | cell line | strain | result
O=c1cc(-c2ccc(Oc3c(O)cc4oc(-c5ccc(O)cc5)cc(=O)c4c3O)cc2)oc2cc(O)cc(O)c12 | neutral red | MA-104 | UTAH 89 | >3.2 µg/mL
CCOCCOC(c1cccc2cccnc12)n1c(NC2CCN(CC(N)C(C)C)CC2)nc2ccccc21 |  |  |  | 0.006 µM
NC(=O)c1nc(F)c[nH]c1=O | plaque count | HEP-2 |  | 41 µg/mL
CCOC(c1ccccn1)n1c(NC2CCN(CCN)CC2)nc2ccccc21 | MTT | HELA/M |  | 0.063 µM
Nc1cc2[nH]cnc2c(=O)[nH]1 | cytopathic effect | HeLa | S-2 | 1.6 µg/mL
COc1c(C)c2c(c(O)c1CC(=O)O)C(=O)OC2 | plaque count | HeLa | TYPE A/FM-58-8 | 0.09 µg/mL
O=C1CN(CCCn2c(Cn3c(=O)n(C4CC4)c4ccncc43)nc3ccccc32)C(=O)N1 |  |  |  | <50 µM
CCOC(c1cccc(C)n1)n1c(NC2CCN(CCN)CC2)nc2ccccc21 | MTT | HELA/M |  | 0.013 µM
Nc1ncnc2c1c(Cl)cn2[C@@H]1O[C@H](CO)[C@@H](O)[C@H]1O | cytopathic effect | HeLa | LONG | >4 µg/mL
O=c1n(Cc2nc3ccccc3n2CCCCO)c2cnccc2n1C1CC1 |  |  | Long A2 B-Washington | 0.009–0.05 µM
Cc1nnnn1/C=C/c1ccc(O)c(C(c2ccc(O)cc2)c2cc(/C=N/n3nnnc3C)ccc2O)c1 | cell fusion | BHK-21 |  | 0.0054 µM
COc1cc(O)c2c(=O)cc(-c3ccc(O)c(-c4c(O)cc(O)c5c(=O)cc(-c6ccc(O)cc6)oc45)c3)oc2c1 | plaque count | HEP-2 |  | >100 µg/mL
Nc1ccn([C@@H]2C[C@@H](O)[C@H](CO)O2)c(=O)n1 |  | MA-104 | TYPE A | >100 µM
NC(=O)c1[nH]nc([C@@H]2O[C@H](CO)[C@@H](O)[C@H]2O)c1O | cytopathic effect | HeLa | S-2 | 0.02 µg/mL
C#Cc1c(C(N)=O)ncn1[C@@H]1O[C@H](CO)[C@@H](O)[C@H]1O | plaque count | HeLa | TYPE 3/LONG | 0.13 µg/mL
Cc1nnnn1/N=C/c1ccc(O)c(C(c2ccc(O)cc2)c2cc(/C=N/n3nnnc3C)ccc2O)c1 |  | HEP-2 | A2 | 0.0014 µM
NC(=O)c1ncn([C@@H]2O[C@H](CO)[C@@H](O)[C@H]2O)n1 | plaque count | HEP-2 | 46 | 4 µg/mL
CCCCCCCCCCCCCCCCCCCCCCOCC(C)(COCCCCCCCCCCCCCCCCCCCCCC)CO[C@]1(C(=O)O)C[C@H](OS(=O)(=O)O)[C@@H](NC(C)=O)[C@H]([C@H](OS(=O)(=O)O)[C@@H](COS(=O)(=O)O)OS(=O)(=O)O)O1 | plaque count | HEP-2 | FM-58-8 | 0.15 µM
O=c1n(Cc2nc3ccccc3n2CCCCO)c2cnccc2n1C1CC1 |  |  |  | 0.024 µM
c1ccc2c(c1)CSSC2 | cytopathic effect | HeLa | clone 9 (RD3-0028-resistant) | >244.4 µM
Nc1ncnc2c1ncn2[C@@H]1C[C@@H](O)[C@H](CO)O1 |  | MA-104 | TYPE A | >100 µM
Fc1ccc(Cn2cnnc2CN(CCc2ccc(Br)cc2)Cc2ccc3ccccc3n2)cc1 |  |  |  | 0.08 µM
COc1ccc(-c2cc(=O)c3c(O)cc(O)c(-c4cc(-c5cc(=O)c6c(O)cc(OC)cc6o5)ccc4O)c3o2)cc1 | plaque count | HEP-2 |  | 50 µg/mL

Repeating the final 3 entries:

{"structure": "Nc1ncnc2c1ncn2[C@@H]1C[C@@H](O)[C@H](CO)O1", "cell line": "MA-104", "strain": "TYPE A", "result": ">100 µM"}
{"structure": "Fc1ccc(Cn2cnnc2CN(CCc2ccc(Br)cc2)Cc2ccc3ccccc3n2)cc1", "result": "0.08 µM"}
{"structure": "COc1ccc(-c2cc(=O)c3c(O)cc(O)c(-c4cc(-c5cc(=O)c6c(O)cc(OC)cc6o5)ccc4O)c3o2)cc1", "method": "plaque count", "cell line": "HEP-2", "result": "50 µg/mL"}